Measurements published in patent US20220033460A1, “IDENTIFICATION AND USE OF T CELL EPITOPES IN DESIGNING DIAGNOSTIC AND THERAPEUTIC APPROACHES FOR COVID-19” (priority 2020, published 2022).
Values joined by “and” are separate entries in the source; they are usually repeats but may differ in a detail not shown here. Equal entries are not always repeated. Where two headings read alike, the source gives them in different places.

Experiments:
CD8+ T cells [1] = test system: CD8+ T cells
I-Ab = target: T1, I-Ab (Mus musculus, UniProt P14434+P14483); details: I-Ab presented peptides cloned in MCR2 vector; read-out: IC50 (I-Ab binding affinity); cited from earlier work
T1 sequence (P14483 28-265): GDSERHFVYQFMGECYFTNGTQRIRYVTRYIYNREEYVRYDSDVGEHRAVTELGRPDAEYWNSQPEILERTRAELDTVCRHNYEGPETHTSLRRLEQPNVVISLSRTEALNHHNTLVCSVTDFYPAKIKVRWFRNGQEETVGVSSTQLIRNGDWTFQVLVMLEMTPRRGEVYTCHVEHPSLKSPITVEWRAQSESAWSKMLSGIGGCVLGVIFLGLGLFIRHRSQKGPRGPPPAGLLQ
T1 sequence (P14434 24-256): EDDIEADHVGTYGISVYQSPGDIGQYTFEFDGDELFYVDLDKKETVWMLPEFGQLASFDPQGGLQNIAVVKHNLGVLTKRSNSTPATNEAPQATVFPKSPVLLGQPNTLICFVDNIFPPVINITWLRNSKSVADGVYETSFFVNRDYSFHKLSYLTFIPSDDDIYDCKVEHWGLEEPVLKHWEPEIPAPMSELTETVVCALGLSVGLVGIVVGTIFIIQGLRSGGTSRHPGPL

CD8+ T cells [2] = assay type: cell-based, human; details: for specificity to SARS-CoV-2 antigens, count per antigen: acute and convalescent COVID-19 patients; for specificity to SARS-CoV-2 antigens, count per antigen, Summary: sum over the four HLA alleles; for No. of Cells: cells of the TCR clonotype specific for the epitope / HLA class I of the same line
TCR115 = experiment: MCR system screening of TCR115 and HLA-II presentation of M protein epitopes (Example 19); assay type: cell-based, human; details: T cells expressing the TCR

Compound: CC(C)C[C@H](NC(=O)[C@H](CCC(N)=O)NC(=O)[C@H](CC(N)=O)NC(=O)[C@H](CC(C)C)NC(=O)[C@H](CCCNC(=N)N)NC(=O)[C@H](CC(=O)O)NC(=O)[C@H](CC(C)C)NC(=O)[C@H](CC(C)C)NC(=O)[C@@H](N)CC(C)C)C(=O)O
- proportion of epitope-specific T cells in cytotoxic terminal effector (C7) (CD8+ T cells [1]; convalescent donors): 61%

Compound: CC[C@H](C)[C@H](NC(=O)[C@@H](NC(=O)[C@H](CC(N)=O)NC(=O)[C@H](CCSC)NC(=O)[C@H](CC(C)C)NC(=O)[C@@H](N)[C@@H](C)O)C(C)C)C(=O)N[C@H](C(=O)N[C@@H](CC(C)C)C(=O)N[C@H](C(=O)O)C(C)C)[C@@H](C)O
- proportion of epitope-specific T cells in cytotoxic terminal effector (C7) (CD8+ T cells [1]; convalescent donors): 80%

Compound: AWENTTIDLTSEKPA
- IC50 (I-Ab): 10 µM

Compound: FTSDYYQLY (SARS-CoV-2 epitope)
- No. of Clono Types (CD8+ T cells [2]; CDR3alpha motif group): 1
- No. of subjects (CD8+ T cells [2]; CDR3alpha motif group): 2
- Total Cells (CD8+ T cells [2]; CDR3alpha motif group): 5
- No. of Clono Types (CD8+ T cells [2]; CDR3beta motif group): 2
- No. of subjects (CD8+ T cells [2]; CDR3beta motif group): 2
- Total Cells (CD8+ T cells [2]; CDR3beta motif group): 10

Compound: GLVSQLSVLSSITNI
- IC50 (I-Ab): 5.28 µM

Compound: IEYAKLYVLSPILAE
- IC50 (I-Ab): 0.282 µM

Compound: IIKYNRRLAKSIICE
- IC50 (I-Ab): 8.39 µM

Compound: LLYDANYFL (SARS-CoV-2 3A epitope)
- No. of Clono Types (CD8+ T cells [2]; CDR3alpha motif group): 20
- No. of subjects (CD8+ T cells [2]; CDR3alpha motif group): 9
- Total Cells (CD8+ T cells [2]; CDR3alpha motif group): 30
- No. of subjects (CD8+ T cells [2]; CDR3beta motif group): 5 and 3
- Total Cells (CD8+ T cells [2]; CDR3beta motif group): 9 and 7 and 10
- proportion of epitope-specific T cells in central memory (C2) (CD8+ T cells [1]; convalescent donors): 42%

Compound: PTDNYITTY (SARS-CoV-2 epitope)
- No. of Clono Types (CD8+ T cells [2]; CDR3alpha motif group): 9
- No. of subjects (CD8+ T cells [2]; CDR3alpha motif group): 2
- Total Cells (CD8+ T cells [2]; CDR3alpha motif group): 13
- No. of Clono Types (CD8+ T cells [2]; CDR3beta motif group): 7
- No. of subjects (CD8+ T cells [2]; CDR3beta motif group): 2
- Total Cells (CD8+ T cells [2]; CDR3beta motif group): 10
- proportion of epitope-specific T cells in central memory (C2) (CD8+ T cells [1]; convalescent donors): 49%

Compound: RIRGGDGKM (SARS-CoV-2 N Protein epitope)
- No. of Clono Types (CD8+ T cells [2]; CDR3alpha motif group): 2
- No. of subjects (CD8+ T cells [2]; CDR3alpha motif group): 2
- Total Cells (CD8+ T cells [2]; CDR3alpha motif group): 3
- No. of Clono Types (CD8+ T cells [2]; CDR3beta motif group): 2
- No. of subjects (CD8+ T cells [2]; CDR3beta motif group): 2
- Total Cells (CD8+ T cells [2]; CDR3beta motif group): 3

Compound: SARS2_3A: SARS-CoV-2 antigen 3A
- specificity to SARS-CoV-2 antigens, count per antigen (CD8+ T cells [2]; A*01:01): 6
- specificity to SARS-CoV-2 antigens, count per antigen (CD8+ T cells [2]; A*02:01): 73
- specificity to SARS-CoV-2 antigens, count per antigen (CD8+ T cells [2]; A*24:02): 6
- specificity to SARS-CoV-2 antigens, count per antigen (CD8+ T cells [2]; B*07:02): 1
- specificity to SARS-CoV-2 antigens, count per antigen, Summary (CD8+ T cells [2]): 86

Compound: SARS2_9B: SARS-CoV-2 antigen 9B
- specificity to SARS-CoV-2 antigens, count per antigen (CD8+ T cells [2]; A*02:01): 9
- specificity to SARS-CoV-2 antigens, count per antigen, Summary (CD8+ T cells [2]): 9

Compound: TCR115: published TCR of a CD4 T cell clonotype from BAL of patient C141, screened in the MCR system (TCR alpha CAAMNNTNAGKSTF; TCR beta CASSLFSSGQGNGYTF)
- recognition of the 20mer epitope […] (SEQ ID NO: 306) (TCR115): strongly recognized

Compound: TCR_113: TCR to YLQPRTFLL / A*02:01 (TCR alpha CAVRGADNARLMF; TCR beta CASSSVSLGNEQFF)
- No. of Cells (CD8+ T cells [2]): 4

Compound: TCR_115: TCR to SPRWYFYYL / B*07:02 (TCR alpha CAAMNNTNAGKSTF; TCR beta CASSLFSSGQGNGYTF)
- No. of Cells (CD8+ T cells [2]): 3

Compound: TCR_123: TCR to YLQPRTFLL / A*02:01 (TCR alpha CVVNGYNTDKLIF; TCR beta CASSSVSLGNEQFF)
- No. of Cells (CD8+ T cells [2]): 4

Compound: TCR_124: TCR to YYQLYSTQL / A*24:02 (TCR alpha CAMSPNNAGNMLTF; TCR beta CASSLEMQGALYGYTF)
- No. of Cells (CD8+ T cells [2]): 3

Compound: TCR_125: TCR to SPRWYFYYL / B*07:02 (TCR alpha CALNQDRGSTLGRLYF; TCR beta CASSLFSSGQGNGYTF)
- No. of Cells (CD8+ T cells [2]): 3

Compound: TCR_128: TCR to SPRWYFYYL / B*07:02 (TCR alpha CAMSASPNDMRF; TCR beta CASSYYPSASGRADETQYF)
- No. of Cells (CD8+ T cells [2]): 2

Compound: TSQWLTNIF (SARS-CoV-2 epitope)
- proportion of epitope-specific T cells in central memory (C2) (CD8+ T cells [1]; unexposed subjects): 70%

Compound: VYIGDPAQL (SARS-CoV-2 ORF1AB epitope)
- share of unexposed subjects with epitope-specific CD8+ T cells (CD8+ T cells [2]; unexposed subjects with the HLA allele): not detected

Compound: YDMFNLLLMKPLGIE
- IC50 (I-Ab): 6.75 µM
